Source: US11992011B2, “Compounds for controlling plant pathogens” (VIB VZW, priority 2017, dated 2024)

Columns and labels:
Assay type in all cases: in vivo
Meloidogyne graminicola [1] = test: Meloidogyne graminicola infection in rice, first experiment (Example 3); conditions: infected rice; 100 μM; harvested twelve days after infection; median (IQR); n = 8
Experimental: (§1) Seeds were germinated on wet tissue paper at 30° C. in the dark for three days, followed by transfer to individual PVC tubes (for nematode infection) containing SAP (Reversat et al., 1999). SAP (sand-absorbent polymer) is a mixture of fine silica sand and ultra-absorbent acrylic copolymer (DCM AquaPerla, DSM, Grobbendonk, Belgium) in a ratio of 1 kg sand to 1.5 g of dry copolymer.
(§2) Before use, each tube was washed in soapy water and dried in an oven at 70° C. for two days. […] The first two days after transfer, the tubes were covered with a polyethylene film (Saran Film, Dow Chemicals, Midland, USA) to prevent excessive evaporation. Seedlings were watered three times per week with 8 ml of Hoagland solution (Hoagland, 1938).
M. graminicola was extracted from infected Echinocloa crus-galli roots grown in potting soil at 25° C. Roots were washed until most soil was removed, after which they were cut into short fragments (with special care taken to cut open any outwardly visible galls). The cut material was put in […] pore diameter sieves which were put into a tap water bath at room temperature for three days. The water was then poured over a […] mesh sieve. The sieve surface was washed with approximately 50 ml of non-demineralized water, which was collected into a beaker before it could seep through the sieve.
The number of nematodes in five 100 μl samples taken from the nematode suspension was counted under a stereo microscope and averaged to determine inoculum concentration. Each plant (grown per the protocol outlined in the previous section) was then inoculated by injecting the desired number of nematodes in the SAP surrounding the root system using a micro-pipette.
(§3) Infection experiments with M. graminicola were performed by inoculating host plants 14 days after transfer to SAP by introducing the desired amount of J2 juveniles next to the root system using a micro pipette. Rice plants (cv. Nipponbare or Kitaake) were inoculated with 250 J2 juveniles per plant; wheat plants (cv. Sahara) were inoculated with 600 J2 juveniles per plant. Plants were harvested 14 days after inoculation. At this point, the plants were phenotyped by measuring the shoot and root length with a ruler, counting the number of adventitious roots and in some experiments by measuring leaf area using the EasyLeafArea software (Easlon and Bloom, 2014) and by determining shoot dry mass after 72 hours of drying in an oven at 70° C. Root systems were then stained in acid fuchsine as described in (Byrd et al., 1983) and left to destain in glycerol with 1 ml/l fuming HCl added for approximately ten days. The number of galls and nematodes was then counted using a binocular microscope.
Rice plants were germinated for three days, transferred to SAP and grown for twelve days. After twelve days, 240 M. graminicola J2 nematodes on average were added to each plant. Plants were harvested twelve days after infection and roots were stained with acid fuchsine to visualize galls and nematodes.

Meloidogyne graminicola [2] = test: Meloidogyne graminicola infection in rice, second experiment (Example 4); conditions: infected rice; 100 μM; ratio of cell wall mass to total dry mass; median (IQR)
Experimental: as §1, §2
M. graminicola was extracted from infected Echinocloa crus-galli roots grown in potting soil at 25° C. […]
The number of nematodes in five 100 μl samples taken from the nematode suspension was counted under a stereo microscope and averaged to determine inoculum concentration. […]
Infection experiments with M. graminicola were performed by inoculating host plants 14 days after transfer to SAP by introducing the desired amount of J2 juveniles next to the root system using a micro pipette. […] The number of galls and nematodes was then counted using a binocular microscope. […]

Pratylenchus penetrans = Pratylenchus penetrans infection in wheat cv. Sahara (Example 10); conditions: infected wheat; PA foliar spray; mean ± SD; n = 8
Experimental: For Examples 1, 5 and 10, seeds of the winter wheat cultivar Sahara (Aveve Agrarisch, Landen, Belgium) were used. Seeds were washed in a 10% ethanol solution to remove any residual traces of fungicide and then germinated on wet paper at room temperature for four days; seeds were transferred to SAP tubes and placed in a growth chamber (25° C., 16 hours per day of light). Plants were watered with 8 ml of half-strength Hoagland solution every two days for the first ten days and with 8 ml of full strength Hoagland solution every two days afterwards.
A pure culture of P. penetrans grown on carrot disks was kindly provided by Giuseppi Lucarelli (Horto Service, Noicattaro, Italy). […]
Infection experiments with P. penetrans were performed by inoculating host plants 14 days after transfer to SAP by introducing 500 nematodes to their root system using a micro pipette. […] Lesions were counted manually using a magnifying glass after washing and spreading open the root system. Nematodes were counted by macerating the root systems with a kitchen blender, placing a root system in 30 ml of autoclaved tap water for 24 hours and finally counting the number of nematodes in four 500 μl aliquots from each 30 ml root suspension under a binocular microscope.

Meloidogyne graminicola [3] = test: Application regimens of PA, rice - Meloidogyne graminicola (Example 8)
Experimental: Seed coatings were applied by dipping seeds in a coating solution containing 20 g/I high viscosity carboxymethylcellulose (Sigma-Aldrich, Saint Louis, USA) in distilled water as well as 300 μM of the target compound. Seeds were then dried overnight at room temperature.
as §3
Four application regimes for PA on the rice-Meloidogyne graminicola interaction were compared: a seed coating treatment, a single high-dose foliar spray prior to infection, a single high-dose foliar spray after infection and repeated lower-dose foliar sprays throughout the growing period.
One hundred rice seeds (cv. Nipponbare) were randomly divided into five groups of twenty seeds: a control group, seeds that were coated with carboxymethylcellulose containing 300 μM PA (PA coating), a group that would be foliarly sprayed with 100 μM PA solution three times per week (PA continuous), a group that would be sprayed once with a 300 μM PA solution one day prior to nematode inoculation (PA−1 dpi) and a group that would be sprayed once with a 300 μM PA solution seven days after nematode inoculation (PA+7 dpi).
The experiment was carried out as per the materials and methods described in Materials and Methods, sections Oryza sativa (rice) and Meloidogyne graminicola culture.

Heterodera schachtii = Heterodera schachtii infection in sugar beet (Example 9); conditions: infected sugar beet; 10 μM PA; mean ± SD; n = 8
Experimental: Sugar beet seeds (cultivar Jolgeh) were germinated for five days at 25° C. on sterile potting soil saturated with distilled water. Seedlings were transferred to SAP tubes, which were placed in a growth chamber at 24° C. (16h per day of fluorescent lighting). The first two days after transfer, the tubes were covered with a polyethylene film (Saran Film, Dow Chemicals, Midland, USA) to prevent excessive evaporation. Seedlings were watered three times per week with 8 ml of Hoagland solution.
Cysts were collected from sugar beets (cv. Jolgeh) kept in a growing chamber at 21° C. through a flotation protocol. Plant roots and their surrounding soil were placed in a water bath at room temperature and gently agitated, followed by decanting and sieving to allow collection of cysts. Cysts were are-dried for two days and stored until use.
Hatching of cysts was induced by exposing them to a zinc chloride solution (3 mM in distilled water) at 25° C. for three days. Five 100 μl samples were taken from this suspension. The number of J2 juveniles in each sample was counted and the results were averaged. […]
Infection experiments with H. schachtii were performed by inoculating host plants 14 days after transfer to SAP by introducing 250 J2 juveniles to their root system using a micro pipette. […] Cysts were collected through a sucrose flotation protocol and then counted and microscopically assessed for maturity. […]

[4] = PA +7 dpi: sprayed once with 300 μM PA seven days after inoculation, n = 8
[5] = PA coating: seeds coated with carboxymethylcellulose solution containing 300 μM PA, n = 7
[6] = PA continuous: sprayed three times a week with 100 μM PA, n = 9
[7] = PA −1 dpi: sprayed once with 300 μM PA one day before inoculation, n = 8

With `O=C(O)/C=C/c1ccc2c(c1)OCO2` [MDCA, 3,4-methylenedioxycinnamic acid] the Root length (Meloidogyne graminicola [1]) was 18.0 (IQR = 2.7) cm, the Root number (Meloidogyne graminicola [1]) was 13.5 (IQR = 2.0) and the Shoot length (Meloidogyne graminicola [1]) was 50.4 (IQR = 2.7) cm. For the same molecule, the “Shoot CWR” value (Meloidogyne graminicola [2]) was 0.65 (IQR = 0.03) %.
With `O=C(O)c1ccc2c(c1)OCO2` [PA, Piperonylic acid] the Root length (Pratylenchus penetrans) was 23.1 ± 5.6 cm, the Shoot dry mass (Pratylenchus penetrans) was 225.3 ± 24.6 mg and the Root length (Meloidogyne graminicola [1]) was 19.5 (IQR = 2.3) cm. The Root number (Meloidogyne graminicola [1]) was 14.0 (IQR = 1.3), the Shoot length (Meloidogyne graminicola [1]) was 51.3 (IQR = 1.8) cm and the BBCH stage (Meloidogyne graminicola [3]; [4]) was 15.6 ± 0.5. The “Number of AR” value (Meloidogyne graminicola [3]; [4]) was 15.3 ± 7.0, the Root length (Meloidogyne graminicola [3]; [4]) was 12.5 ± 6.8 cm and the Shoot length (Meloidogyne graminicola [3]; [4]) was 34.3 ± 12.5 cm. For the same molecule, the BBCH stage (Meloidogyne graminicola [3]; [5]) was 15.8 ± 0.5, the “Number of AR” value (Meloidogyne graminicola [3]; [5]) was 13.3 ± 3.2 and the Root length (Meloidogyne graminicola [3]; [5]) was 14.0 ± 5.9 cm. For the same molecule, the Shoot length (Meloidogyne graminicola [3]; [5]) was 32.9 ± 9.8 cm, the BBCH stage (Meloidogyne graminicola [3]; [6]) was 15.6 ± 0.5 and the “Number of AR” value (Meloidogyne graminicola [3]; [6]) was 13.8 ± 3.3. For the same molecule, the Root length (Meloidogyne graminicola [3]; [6]) was 11.9 ± 4.1 cm, the Shoot length (Meloidogyne graminicola [3]; [6]) was 32.9 ± 7.2 cm and the BBCH stage (Meloidogyne graminicola [3]; [7]) was 15.8 ± 0.7. The “Number of AR” value (Meloidogyne graminicola [3]; [7]) was 18.3 ± 5.5, the Root length (Meloidogyne graminicola [3]; [7]) was 14.8 ± 5.7 cm and the Shoot length (Meloidogyne graminicola [3]; [7]) was 39.0 ± 9.2 cm. For the same molecule, the “Shoot CWR” value (Meloidogyne graminicola [2]) was 0.64 (IQR = 0.03) %, the Root length (Heterodera schachtii) was 20.4 ± 1.7 cm and the Shoot length (Heterodera schachtii) was 20.9 ± 3.4 cm.
